# PubChem BioAssay AID504761, Drosophila RNAi Screening Center – 2011
# Assay: 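Fly genes whose silencing reduces dengue virus type 2 infection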 (primary screen)
# System: D.Mel-2 cells from Drosophila
# Reagent: long dsRNA against Drosophila genes
# Treatment: infection with dengue virus type 2; dose and infection time not stated
# Measured: 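Per well on two replicate plates, imaging gave the percent of cells positive for viral envelope protein, ranked by infection, and a nuclear count of cells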
# Reading the numbers: infection score: higher = more virus-infected cells; cell count: higher = more cells in the well
# Call rule: 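Very low infection ranking in both replicate wells (chance probability at most 0.065), then a retest showing infection dropped 1.5-fold or more at p below 0.05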
# Calls: active = confirmed: knock-down lowers infection; inactive = not picked or not confirmed
# The deposit covers about 22,000 reagents; shown is a random part of those with a known target gene and a result. Of all reagents, 116 (0.52%) are marked active. 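Calls depend on retest data that are not deposited; infection was ranked per plate without normalising between plates; the unit of the infection score is not given.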 Raw values are not corrected between plates. Entries without a mark were called inactive. A plus sign joins genes that one reagent is predicted to hit. Not stated in the record: the amount of reagent, the time to read-out.
gene,DRSC id,"infection score, replicate 1","infection score, replicate 2","cell count, replicate 1","cell count, replicate 2"
CG2961,DRSC18246,15.6,20.4,6535,3381
CG2961,DRSC28539,19.2,3.9,6302,1025
beat-IIa,DRSC14813,11.9,4.72,3585,530
beat-IIa,DRSC14814,5.88,17.4,6616,4688
bur,DRSC03163,10.5,27.6,6193,5535
Cpr72Ea,DRSC10451,1.25,3.93,6539,6430
Nak,DRSC03379,16.5,8.14,6748,6547
Nak,DRSC27565,10.4,,6554,479
CG10208,DRSC14211,1.23,8.07,6012,5888
CG2100,DRSC12303,5.04,8.59,6266,5959
Rab26,DRSC11838,2.99,0.81,6560,6666
Rab26,DRSC11839,14.1,2.18,6353,6700
Rab26,DRSC24968,6.18,9.26,5794,6209
Rab26,DRSC27712,17.9,18.1,6182,6995
CG2127,DRSC06821,14.5,9.9,6746,1869
CG10477,DRSC09732,0.6,3.85,6209,5915
CG10477,DRSC23989,4.92,4.3,6051,6090
CG33992 (retired record) + CG43755,DRSC00012,1.41,0.57,6169,6470
CG17996 + Tsen2,DRSC02650,1.81,6.05,938,6231
CG18539,DRSC06766,23.9,11.9,5060,6276
rsh,DRSC23355,9.77,6.5,4164,2938
sns,DRSC07687,20.2,20.3,4865,3952
sns,DRSC07688,17,6.12,6018,6519
sns,DRSC07689,12.6,13.9,3455,5528
sns,DRSC07691,6.29,9.8,6156,3653
Gfat1,DRSC21219,2.72,1.54,5770,5595
Gfat1,DRSC29612,17.6,17,2789,5219
CG15225,DRSC23269,2.11,8.43,5493,5906
CG15225,DRSC29370,23.8,8.6,5260,1570
CG17111,DRSC15174,3.77,2.29,6585,6551
CG17111,DRSC26175,13.1,2.19,5343,6710
CG13733,DRSC10061,7.26,4.24,5714,5490
pkm,DRSC19674,8.4,0.83,6301,6486
pkm,DRSC29050,21,17.7,3833,5011
CG12535,DRSC17838,3.75,1.79,853,1616
Sam-S,DRSC00758,,,490,434
Tsp29Fa,DRSC03232,2.14,1.06,5923,6612
Tsp29Fa,DRSC28522,18.8,7.97,4006,3174
CG4438,DRSC02746,10.7,10,4630,2755
CG4438,DRSC25747,9.21,24.5,6220,6106
CG4681,DRSC04481,2.73,3.55,6038,6962
CG4681,DRSC26116,7.01,2.88,5964,5696
CG14253,DRSC14748,,4.25,249,6874
Fas1,DRSC16669,2.51,7.72,6420,6765
CG5376,DRSC15782,,9.24,371,5519
CG5376,DRSC29433,25.6,1.23,4849,891
CG8617,DRSC07223,4.61,4.55,6935,6597
Gclm,DRSC15677,1.9,8.13,6215,6670
Gclm,DRSC26358,13.8,5.11,5660,6667
siz,DRSC11622,4.49,1.42,6348,6319
siz,DRSC11690,10.9,3.57,6380,6380
siz,DRSC27379,35.6,22.4,5986,6620
CR31292,DRSC13120,4.43,1.15,5920,6163
Prosalpha3T,DRSC15226,5.38,1.6,2750,7017
CG6340,DRSC19987,14,1.06,5061,5758
CG6340,DRSC25288,7.08,11.8,6087,5689
ppan,DRSC17030,12.3,11.7,3093,5211
ppan,DRSC28476,7.79,18,1822,3307

5 successive entries from above, quoted:
gene,DRSC id,"infection score, replicate 1","infection score, replicate 2","cell count, replicate 1","cell count, replicate 2"
CG2961,DRSC18246,15.6,20.4,6535,3381
CG2961,DRSC28539,19.2,3.9,6302,1025
beat-IIa,DRSC14813,11.9,4.72,3585,530
beat-IIa,DRSC14814,5.88,17.4,6616,4688
bur,DRSC03163,10.5,27.6,6193,5535
